Values from PubChem BioAssay AID1259414 (Drosophila RNAi Screening Center, 2018).

- Aim: 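Genome-wide screen for host control of endosymbiont load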 (primary screen)
- System: Drosophila JW18 cells infected with Wolbachia
- Reagent: long dsRNA against Drosophila genes, 0.25 µg dsRNA per well of a 384-well plate
- Timing: 5 days
- Treatment: cells persistently infected with Wolbachia before knock-down; no added drug
- Measurement: 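Imaged fluorescence in situ signal for Wolbachia 23S rRNA per DAPI-counted host cell, given as a robust z-score within each plate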
- Reading the numbers: Wolbachia per cell robust z: higher = more Wolbachia per host cell than the plate typical
- Call rule: 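Hit when robust z is 1.5 or more, or -1.5 or less, in at least two of three replicates; excludes dsRNAs with several or no targets, genes not expressed in JW18 and well A1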
In all, the deposit lists about 24,000 reagents; this is a random part of those with a known target gene and a result. Over the whole deposit, about 1,210 (5%) were called active. 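Inactive calls also include excluded dsRNAs with several or no targets, genes unexpressed in JW18, and well A1, regardless of score.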

For IFT57 [DRSC00720], what does the deposit list?
Wolbachia per cell robust z, rep 1: 0.179; Wolbachia per cell robust z, rep 2: -0.339; Wolbachia per cell robust z, rep 3: 0.168; outcome: inactive

What is on record for CG8157 [DRSC07085]?
Wolbachia per cell robust z, rep 1: -1.02; Wolbachia per cell robust z, rep 2: -1.69; Wolbachia per cell robust z, rep 3: -0.697; outcome: inactive

Which result is listed for CG8157 [DRSC21595]?
Wolbachia per cell robust z, rep 1: -1.17; Wolbachia per cell robust z, rep 2: -1.99; Wolbachia per cell robust z, rep 3: -1.17; outcome: inactive

What is on record for CG8157 [DRSC25401]?
Wolbachia per cell robust z, rep 1: -0.127; Wolbachia per cell robust z, rep 2: -0.0825; Wolbachia per cell robust z, rep 3: 0.133; outcome: inactive

What did the screen give for CG8372 [DRSC03086]?
Wolbachia per cell robust z, rep 1: 0.414; Wolbachia per cell robust z, rep 2: -0.343; Wolbachia per cell robust z, rep 3: -0.777; outcome: inactive

What is on record for HSPBAP1 [DRSC14567]?
Wolbachia per cell robust z, rep 1: -0.443; Wolbachia per cell robust z, rep 2: 0.552; Wolbachia per cell robust z, rep 3: -0.134; outcome: inactive

With CG40498 [DRSC38568], what does the deposit list?
Wolbachia per cell robust z, rep 1: -0.967; Wolbachia per cell robust z, rep 2: -0.804; Wolbachia per cell robust z, rep 3: -1.45; outcome: inactive

What is on record for CG40498 [DRSC38860]?
Wolbachia per cell robust z, rep 1: -0.359; Wolbachia per cell robust z, rep 2: -5.26; Wolbachia per cell robust z, rep 3: 0.836; outcome: inactive

For COX7AL [DRSC15313], how do the results read?
Wolbachia per cell robust z, rep 1: 0.809; Wolbachia per cell robust z, rep 2: -0.429; Wolbachia per cell robust z, rep 3: 0.303; outcome: inactive

With COX7AL [DRSC25198], what does the deposit list?
Wolbachia per cell robust z, rep 1: -2.18; Wolbachia per cell robust z, rep 2: -1.06; Wolbachia per cell robust z, rep 3: -0.822; outcome: inactive

With CG31265 [DRSC15745], what does the deposit list?
Wolbachia per cell robust z, rep 1: 0.549; Wolbachia per cell robust z, rep 2: 1.07; Wolbachia per cell robust z, rep 3: 0.679; outcome: inactive

What is on record for CG31265 [DRSC28592]?
Wolbachia per cell robust z, rep 1: -0.0918; Wolbachia per cell robust z, rep 2: 0.567; Wolbachia per cell robust z, rep 3: -0.785; outcome: inactive

With CG33459 [DRSC05615], what does the deposit list?
Wolbachia per cell robust z, rep 1: 0.588; Wolbachia per cell robust z, rep 2: -0.722; Wolbachia per cell robust z, rep 3: 0.376; outcome: inactive

With CycE [DRSC03295], what was measured?
Wolbachia per cell robust z, rep 1: 1.78; Wolbachia per cell robust z, rep 2: 1.79; Wolbachia per cell robust z, rep 3: 2.68; outcome: active

For CycE [DRSC03296], what was measured?
Wolbachia per cell robust z, rep 1: 1.64; Wolbachia per cell robust z, rep 2: 0.931; Wolbachia per cell robust z, rep 3: 1.76; outcome: active

What is on record for CycE [DRSC40680]?
Wolbachia per cell robust z, rep 1: 0.995; Wolbachia per cell robust z, rep 2: 0.0662; Wolbachia per cell robust z, rep 3: 1.15; outcome: inactive

Reagents listed above with an active call (2):
CycE [DRSC03295] → Wolbachia per cell robust z, rep 1: 1.78; Wolbachia per cell robust z, rep 2: 1.79; Wolbachia per cell robust z, rep 3: 2.68; outcome: active
CycE [DRSC03296] → Wolbachia per cell robust z, rep 1: 1.64; Wolbachia per cell robust z, rep 2: 0.931; Wolbachia per cell robust z, rep 3: 1.76; outcome: active
